# From publication PMC8694051 (Proceedings of the National Academy of Sciences of the …, 2021)
# Assays:
# [1] = tested on: VSV-SARS-CoV-2 chimeric virus; assay: VSV-SARS-CoV-2 chimeric virus entry into Calu-3 cells, GFP; settings: for IC50: read-out: IC50 in the VSV-SARS-CoV-2 cell entry assay, dashed lines of Fig. 8
Compound,EC50 [1] [nM],IC50 [1] [nM],EC50 (VSV-MERS) [nM]
CC(=O)N[C@@H](CO)C(=O)N[C@@H](CCCCN)C(=O)N[C@@H](CC(C)C)C(=O)N[C@@H](CCCNC(=N)N)C(=O)c1nc2ccc(C(=O)N[C@H](C(N)=O)C(C)C)cc2s1,459,–,–
CC(=O)N[C@H]1CC(=O)NCCCC[C@@H](C(=O)N[C@@H](CCCNC(=N)N)C(=O)c2nc3ccccc3s2)NC(=O)[C@H](CC(C)C)NC1=O,–,197,–
CCC(C)[C@H](NC(C)=O)C(=O)N[C@@H](CCC(N)=O)C(=O)N[C@@H](Cc1ccccc1)C(=O)N[C@@H](CCCNC(=N)N)C(=O)c1nc2ccccc2s1 (stereo partly drawn),3.6,–,2.3
"CC(=O)N[C@@H](CCC(N)=O)C(=O)N[C@@H](Cc1ccccc1)C(=O)N[C@@H](CCCNC(=N)N)C(=O)c1nc2ccccc2s1 [Compound 6, Ac-QFR-kbt]",0.53,–,0.55
CC(=O)NCC(=O)N[C@@H](CCC(N)=O)C(=O)N[C@@H](Cc1ccccc1)C(=O)N[C@@H](CCCNC(=N)N)C(=O)c1nc2ccccc2s1,0.43,0.43,0.87
CC(=O)N1CCC[C@H]1C(=O)N[C@@H](CCC(N)=O)C(=O)N[C@@H](Cc1ccccc1)C(=O)N[C@@H](CCCNC(=N)N)C(=O)c1nc2ccccc2s1,0.86,–,2.9
"CC(=O)NC(CO)C(=O)NC(CCCCN)C(=O)NC(CC(C)C)C(=O)NC(CCCNC(=N)N)C(=O)c1nc2ccccc2s1 (stereo not drawn) [Compound 3, Ac-SKLR-kbt]",4270,–,–
